Measured values from several laboratories, pooled; numbers as filed in NIAID ChemDB.

Common to all: whole-cell or culture tests; species: Candida albicans; measure: MIC

Conditions beyond the fields shown may differ between rows. Blank or dashed fields: not listed here. a–b is a range or a potency band.

structure	strain or isolate	value
CCSc1ssc(=S)c1C	ATCC 10231	250 µg/mL
C[C@@H](NC(=O)c1ccc(Cl)cc1NC=O)[C@](O)(Cn1cncn1)c1ccc(F)cc1F	60 strains	≤0.03 µg/mL
Cc1[nH]n(-c2ccccc2)c(=O)c1N=Nc1ccc(-c2n[nH]c(=S)n2-c2ccccc2)cc1	ATCC 2091	62.5 µg/mL
COC(=O)/C=C/C(=O)NCC(NC(=O)[C@@H](N)CCCCN)C(=O)O		6.25 µg/mL
O=C(N/N=C/c1ccc(Cl)c(Cl)c1)c1ccccc1SSc1ccccc1C(=O)N/N=C/c1ccc(Cl)c(Cl)c1		125 µg/mL
COC1=CC(=O)C[C@@](C)(O)[C@H]1O		>400 µg/mL
CCn1c(-c2ccc(N=Nc3c(C)[nH][nH]c3=O)cc2)n[nH]c1=S	ATCC 2091	125 µg/mL
Cc1ccc2oc(-c3ccccc3Cl)nc2c1		25 µg/mL
CCCSc1cc(=S)ss1	Clinical isolate 00-604	4 µg/mL
Cc1[nH]n(CCO)c(=O)c1N=Nc1ccc(-c2n[nH]c(=S)n2-c2ccccc2)cc1	ATCC 2091	62.5 µg/mL
C[C@@H](n1cnc2cc(-n3ncnn3)ccc2c1=O)[C@](O)(Cn1cncn1)c1ccc(F)cc1F	76 strains	5 µg/mL
CCc1n[nH]c(=O)n1CCO	ATCC16231	>250 µg/mL
CCC[C@H](N)C(=O)NC(CNC(=O)/C=C/C(=O)OC)C(=O)O		0.2 µg/mL
COc1ccccc1-c1nc2cc(C)ccc2o1		25 µg/mL
NC(=NC1CCCC1)c1ccc(-c2ccc(-c3ccc(C(N)=NC4CCCC4)cc3)o2)cc1	Isolate 1866	12.5 µg/mL
S=c1cc(SCc2ccccc2)ss1	ATCC 10231	125 µg/mL
C[C@@H](N1CCN(c2ccc(-n3cnnn3)cc2)C1=O)[C@](O)(Cn1cncn1)c1ccc(F)cc1F	TA	1 µg/mL
COC(=O)/C=C/C(=O)NCC(NC(=O)[C@@H](N)C(C)C)C(=O)O		0.78 µg/mL
COC1CC2CCC(C)C(O)(O2)C(=O)C(=O)N2CCCCC2C(=O)OC(C(C)CC2CCC(O)C(OC)C2)CC(=O)C(C)/C=C(\C)[C@@](O)(c2ccc(C)s2)C(OC)C(=O)C(C)CC(C)/C=C/C=C/C=C/1C	WILD TYPE	>100 µg/mL
C[C@@H](c1ncncc1F)[C@](O)(Cn1cncn1)c1ccc(F)cc1F	Isolate K1	0.007 µg/mL
C[C@@H](n1cnc2ccc(F)cc2c1=O)[C@](O)(Cn1cncn1)c1ccc(F)cc1F	60 strains	0.07 µg/mL
Cc1[nH]n(-c2ccccc2)c(=O)c1N=Nc1ccc(-c2n[nH]c(=S)o2)cc1	ATCC 2091	62.5 µg/mL
O=c1[nH]nc(-c2ccc([N+](=O)[O-])cc2)[nH]1	ATCC16231	>250 µg/mL
CCCC[C@H](N)C(=O)NC(CNC(=O)/C=C/C(=O)OC)C(=O)O		0.2 µg/mL
CC(C)(C)CSc1cc(=S)ss1	ATCC 10231	50 µg/mL
Cc1nc2cc(Cl)ccc2c(=O)n1[C@H](C)[C@](O)(Cn1cncn1)c1ccc(F)cc1F	406 strains	0.31 µg/mL
CCCCCOc1ccc(-c2cc(-c3ccc(C(=O)N[C@H]4C[C@@H](O)[C@@H](O)NC(=O)[C@@H]5[C@@H](O)[C@@H](C)CN5C(=O)[C@H]([C@H](O)CC(N)=O)NC(=O)[C@H]([C@H](O)[C@@H](O)c5ccc(O)c(OS(=O)(=O)O)c5)NC(=O)[C@@H]5C[C@@H](O)CN5C(=O)[C@H]([C@@H](C)O)NC4=O)cc3)no2)cc1	FP633	0.0156 µg/mL
COC(=O)/C=C/C(=O)NCC(NC(=O)[C@@H](N)CC(C)C)C(=O)O		0.78 µg/mL
CCSSc1ssc(=S)c1OC	ATCC 10231	12.5 µg/mL
CC(N1CCN(c2ccc(-n3cnnn3)cc2)C1=O)[C@](O)(Cn1cncn1)c1ccc(F)cc1F	TIMM1756	0.03 µg/mL
Cc1ccc2nc(-c3ccc(Cl)cc3Cl)oc2c1		25 µg/mL
CCn1nc(-c2ccc(C)cc2)n(NC)c1=O	ATCC16231	>250 µg/mL
Clc1cc(Cl)c(OCC#CI)cc1Cl		6.25 µg/mL
O=C(N/N=C/c1ccc(Cl)cc1Cl)c1cc(Cl)ccc1SSc1ccc(Cl)cc1C(=O)N/N=C/c1ccc(Cl)cc1Cl		250 µg/mL
C[C@H]1[C@H](O)[C@@H](C)/C=C/C=C/C=C/C=C/C=C/C=C/C=C/[C@H](O[C@@H]2O[C@H](C)[C@@H](O)[C@H](N)[C@@H]2O)C[C@@H]2O[C@](O)(C[C@@H](O)C[C@@H](O)CC[C@H](O)[C@@H](O)C[C@@H](O)CC(=O)O[C@H]1C)C[C@H](O)[C@H]2C(=O)O	1208E	0.03 µg/mL
CCCC(NC(=O)C(N)CNC(=O)/C=C/C(=O)OC)C(=O)O		3.12 µg/mL
NNC(=O)c1cc(Br)ccc1SSc1ccc(Br)cc1C(=O)NN		>250 µg/mL
COC1CC2CCC(C)C(O)(O2)C(=O)C(=O)N2CCCCC2C(=O)OC(C(C)CC2CCC(O)C(OC)C2)CC(=O)C(C)/C=C(\C)C(O)[C@@](OC)(N(O)C(=O)OCC(C)C)C(=O)C(C)CC(C)/C=C/C=C/C=C/1C	TOR1-1/TOR1	>100 µg/mL
C[C@@H](n1cnc2cc(-[n+]3cnc[nH]3)ccc2c1=O)[C@](O)(Cn1cncn1)c1ccc(F)cc1F	76 strains	10 µg/mL
O=C(N/N=C/c1ccc(Cl)cc1Cl)c1ccccc1SSc1ccccc1C(=O)N/N=C/c1ccc(Cl)cc1Cl		50–125 µg/mL

Again, the opening 4 rows:

structure	strain or isolate	value
CCSc1ssc(=S)c1C	ATCC 10231	250 µg/mL
C[C@@H](NC(=O)c1ccc(Cl)cc1NC=O)[C@](O)(Cn1cncn1)c1ccc(F)cc1F	60 strains	≤0.03 µg/mL
Cc1[nH]n(-c2ccccc2)c(=O)c1N=Nc1ccc(-c2n[nH]c(=S)n2-c2ccccc2)cc1	ATCC 2091	62.5 µg/mL
COC(=O)/C=C/C(=O)NCC(NC(=O)[C@@H](N)CCCCN)C(=O)O		6.25 µg/mL